Assay results: ChEMBL document CHEMBL2069294, “Synthesis and evaluation of hybrid drugs for a potential HIV/AIDS-malaria combination therapy” (Bioorg Med Chem, 2012)

System: HeLa
Assay: Selectivity index, ratio of CC50 for human HeLa cells to IC50 for Plasmodium falciparum 3D7 ring stage cells
Format: functional

C1OOCOO1
Ratio CC50/IC50: > 312
